PubChem BioAssay AID504761 | Drosophila RNAi Screening Center | 2011

Purpose: 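Insect host genes that dengue virus relies on to spread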 (primary screen)
Cells: D.Mel-2 cells from Drosophila
Reagent: long dsRNA against Drosophila genes
Conditions: infection with dengue virus type 2; dose and infection time not stated
Measurement: 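Per well on two replicate plates, imaging gave the percent of cells positive for viral envelope protein, ranked by infection, and a nuclear count of cells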
Direction: infection score: higher = more virus-infected cells; cell count: higher = more cells in the well
Hit rule: 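Very low infection ranking in both replicate wells (chance probability at most 0.065), then a retest showing infection dropped 1.5-fold or more at p below 0.05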
Meaning of the calls: active = confirmed: knock-down lowers infection; inactive = not picked or not confirmed
In all, the deposit lists about 22,000 reagents; below is an unselected part of those with a known target gene and a result. Of all reagents, 116 (0.52%) were called active. 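Calls depend on retest data that are not deposited; infection was ranked per plate without normalising between plates; the unit of the infection score is not given.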 The raw values are shown without normalisation. Unmarked entries are inactive. A plus sign joins genes that one reagent is predicted to hit. Further read-outs or replicates are left out here. Not stated in the record: the amount of reagent, the time to read-out.

| gene knocked down | PubChem SID | infection score, replicate 1 | infection score, replicate 2 | cell count, replicate 1 |
| --- | --- | --- | --- | --- |
| hid | SID104191108 | 7.04 | 5.38 | 6879 |
| hid | SID104204007 | 0.61 | 1.34 | 6345 |
| CG4839 | SID104182575 | 12.7 | 6.25 | 6373 |
| CG4839 | SID104182576 | 1.22 | 3.11 | 6863 |
| CG7924 | SID104190723 | 5.16 | 12.6 | 5488 |
| CG7924 | SID104204205 | 4.39 | 4.56 | 6832 |
| dgt2 | SID104182340 | 4.24 | 2.04 | 6368 |
| dgt2 | SID104208285 | 21.3 | 8.03 | 6052 |
| CG8841 | SID104187078 | 12.6 | 14.1 | 5593 |
| CG31826 | SID104183149 | 2.64 | 0.81 | 6148 |
| tHMG2 | SID104195974 | 20.1 | 17.4 | 5751 |
| CG5399 | SID104195583 | 2.14 | 2.98 | 6116 |
| CG5399 | SID104203903 | 3.74 | 2.19 | 6844 |
| crm | SID104198546 | 0.73 | 3.43 | 5614 |
| crm | SID104205052 | 1.97 | 1.97 | 6338 |
| CG8064 | SID104196165 | 4.19 | 4.56 | 5676 |
| CG10962 | SID104198213 | 2.44 | 1.58 | 6669 |
| CG10962 | SID104208056 | 5.32 | 14.7 | 1503 |
| Acp63F | SID104187929 | 0.92 | 2.14 | 6180 |
| side-II | SID104181705 | 8.37 | 3.77 | 5126 |
| side-II | SID104181724 | 5.99 | 3.3 | 6442 |
| side-II | SID104182272 | 3.34 | 1.53 | 5986 |
| side-II | SID104201957 | 1.5 | 2.9 | 6197 |
| side-II | SID104203664 | 1.65 | 2.7 | 6498 |
| CG17801 | SID104195065 | 4.83 | 2.44 | 6502 |
| CG10749 | SID104189590 | 0.48 | 0.52 | 6254 |
| CG10749 | SID104206200 | 13.5 | 12.3 | 6249 |
| hng1 | SID104184347 | 2.38 | 16.2 | 6430 |
| djl | SID104192370 | 4.24 | 25.9 | 6340 |
| djl | SID104204153 | 13.6 | 7.59 | 4410 |
| T3dh + pgc | SID104184451 | 16.7 | 17.4 | 6143 |
| p24-1 | SID104199619 | 12.3 | 3.15 | 5579 |
| p24-1 | SID104205262 | 1.6 | 1.85 | 6331 |
| crn | SID104197976 | 1.04 | 4.89 | 865 |
| crn | SID104197977 | 1.25 | 12.9 | 5286 |
| crn | SID104198547 | 5.82 | 3.78 | 1976 |
| CG13868 | SID104186219 | 12 | 12.4 | 4194 |
| CG14490 | SID104186253 | 10.2 | 23.4 | 6854 |
| CG14490 | SID104206185 | 4.59 | 5.5 | 6748 |
| Btk | SID104181800 | 22.4 | – | 5609 |
| Btk | SID104182458 | 1.67 | 1.28 | 6112 |
| Btk | SID104201898 | 2.52 | 11 | 6075 |
| mask | SID104195162 | 6.66 | 2.64 | 1337 |
| mask | SID104195797 | 1.83 | 3.34 | 6238 |
| mask | SID104195810 | 4.37 | 5.69 | 6357 |
| mask | SID104203609 | 12.6 | 7.78 | 6110 |
| Rbcn-3A | SID104198106 | 2.78 | 8.27 | 5722 |
| Rbcn-3A | SID104206743 | – | 14.1 | 52 |
| ms(2)34Fe | SID104181697 | – | 9.93 | 513 |
| tamo | SID104184238 | 15.6 | 25.2 | 6306 |
| tamo | SID104203465 | 2.24 | 0.95 | 6600 |
| ppk17 | SID104182044 | 3.22 | 3.58 | 6372 |
| Gyf | SID104196994 | 12 | 2.66 | 5698 |
| Gyf | SID104207451 | 4.79 | – | 1940 |
| CG14292 | SID104194564 | 0.39 | 1.42 | 6617 |
| HBS1 | SID104188336 | 11.5 | 16.5 | 6528 |
| HBS1 | SID104206970 | – | 7.1 | 359 |
| CG33341 | SID104202246 | 2.46 | 19.3 | 5777 |
| CG33341 | SID104203463 | 11.6 | 7.49 | 6771 |

Reformatted: entries from further up
gene knocked down | PubChem SID | infection score, replicate 1 | infection score, replicate 2 | cell count, replicate 1
side-II | SID104181705 | 8.37 | 3.77 | 5126
side-II | SID104181724 | 5.99 | 3.3 | 6442
side-II | SID104182272 | 3.34 | 1.53 | 5986
